Reference: PMC8566587, “Selection for constrained peptides that bind to a single target protein” (Nature Communications, 2021)

Tested on: RBD (residues 328-533 of the SARS-CoV-2 Spike protein)
Format: cell-based

TSFAEYWNLLSP [PMI]
binding to RBD (in words): does not bind | reduction of fluorescence output of the circuit (in words): almost two orders-of-magnitude lower
